Counter-ions that a name gives are not always drawn.
Test system: activated sludge inoculum
Assay: Biodegradability Test Method, OECD 301B CO2 evolution (modified Sturm Test)

CCCCCCCCCCCCNC(=O)[C@H](O)[C@@H](O)[C@H](O)[C@H](O)COS(=O)(=O)O [Example 1, Sodium (2R,3R,4S,5R)-6-(dodecylamino)-2,3,4,5-tetrahydroxy-6-oxohexyl sulfate]
% SOC Average: 8% | % THCO2 average (percent of theoretical CO2 formation): 79.6%

N-Alkanoyl N-methyl glucamide sulfate [reference compound]
% SOC Average: 56%
